Anti-infective test results gathered from many reports (values: NIAID ChemDB through PubChem).

Shared fields: host cell toxicity; cells: Vero mammalian cells; method: MTT; endpoint: CC50

CCn is the concentration with n% toxicity to the cells.

structure	value
COc1cc2c(cc1OC)CN(c1c(F)cc3c(=O)c(C(=O)O)cn4c3c1OCC4C)CC2	>138 µM
CCN(CC)C(=O)C1CCCN(c2cc3c(cc2[N+](=O)[O-])c(=O)c(C(=O)O)cn3C(C)(C)C)C1	140 µM
C[C@H]1COc2c(N3CCc4ccccc4C3C(=O)NC(C)(C)C)c(F)cc3c(=O)c(C(=O)O)cn1c23	127 µM
O=C(O)c1c(=O)c2cc([N+](=O)[O-])c(N3CCC(N4CCCCC4)CC3)cc2n2c1sc1ccccc12	61.7 µM
COc1c(N2COCC2(C)C)c(F)cc2c(=O)c(C(=O)O)cn(C3CC3)c12	166 µM
CN1CCN(c2cc3c(cc2F)c(=O)c(C(=O)O)cn3C(C)(C)C)CC1c1ccccc1	142.9 µM
COc1c(N2CC(C)OC(C)C2)c(F)c([N+](=O)[O-])c2c(=O)c(C(=O)O)cn(C3CC3)c12	144 µM
O=C(O)c1cn2c(n1)CN(c1cc3c(cc1F)c(=O)c(C(=O)O)c1sc4ccccc4n13)CC2	>130.6 µM
CCN(CC)C(=O)C1CCCN(c2cc3c(cc2[N+](=O)[O-])c(=O)c(C(=O)O)cn3-c2ccc(F)cc2F)C1	62.38 µM
O=C(O)c1c(=O)c2cc([N+](=O)[O-])c(N3CCN(C(c4ccccc4)c4ccc(Cl)cc4)CC3)cc2n2c1sc1ccccc12	50 µM
O=C(O)c1cn(C2CC2)c2cc(N3CCN(C(c4ccccc4)c4ccc(Cl)cc4)CC3)c(F)cc2c1=O	>117.5 µM
CC1CN(c2c(F)c([N+](=O)[O-])c3c(=O)c(C(=O)O)cn4c3c2OCC4C)CC(C)O1	148 µM
CC(C)(C)n1cc(C(=O)O)c(=O)c2cc([N+](=O)[O-])c(N3CCC(n4c(=O)[nH]c5cc(Cl)ccc54)CC3)cc21	>117.5 µM
COc1ccc(CC2C3=C(CCCC3)CCN2c2c(F)cc3c(=O)c(C(=O)O)cn(C4CC4)c3c2OC)cc1	117 µM
CC(C)(C)n1cc(C(=O)O)c(=O)c2cc(F)c(N3CCN(Cc4ccc5c(c4)OCO5)CC3)cc21	129.8 µM
COc1ccc(CC2C3=C(CCCC3)CCN2c2c(F)c([N+](=O)[O-])c3c(=O)c(C(=O)O)cn(C4CC4)c3c2OC)cc1	108 µM
COc1cc2c(cc1OC)CN(c1cc3c(cc1[N+](=O)[O-])c(=O)c(C(=O)O)c1sc4ccccc4n13)CC2	117.6 µM
COc1c(N2CCn3cc(C(=O)O)nc3C2)c(F)c([N+](=O)[O-])c2c(=O)c(C(=O)O)cn(C3CC3)c12	128 µM
C[C@H]1COc2c(N3CCC(n4c(=O)[nH]c5cc(Cl)ccc54)CC3)c(F)c([N+](=O)[O-])c3c(=O)c(C(=O)O)cn1c23	112 µM
COc1c(N2CCN(C(=O)C3COc4ccccc4O3)CC2)c(F)c([N+](=O)[O-])c2c(=O)c(C(=O)O)cn(C3CC3)c12	110 µM
CC1COc2c(N3CCN(C)C(c4ccccc4)C3)c(F)c([N+](=O)[O-])c3c(=O)c(C(=O)O)cn1c23	130 µM
O=C(O)c1c(=O)c2cc([N+](=O)[O-])c(N3CCN(Cc4ccc5c(c4)OCO5)CC3)cc2n2c1sc1ccccc12	111.9 µM
CC1COc2c(N3CCN(C(c4ccccc4)c4ccc(Cl)cc4)CC3)c(F)c([N+](=O)[O-])c3c(=O)c(C(=O)O)cn1c23	105 µM
O=C(O)c1c(=O)c2cc(F)c(N3CCN(C(c4ccccc4)c4ccc(Cl)cc4)CC3)cc2n2c1sc1ccccc12	104.5 µM

The first 3 rows once more:

structure,value
COc1cc2c(cc1OC)CN(c1c(F)cc3c(=O)c(C(=O)O)cn4c3c1OCC4C)CC2,>138 µM
CCN(CC)C(=O)C1CCCN(c2cc3c(cc2[N+](=O)[O-])c(=O)c(C(=O)O)cn3C(C)(C)C)C1,140 µM
C[C@H]1COc2c(N3CCc4ccccc4C3C(=O)NC(C)(C)C)c(F)cc3c(=O)c(C(=O)O)cn1c23,127 µM

Conditions beyond the fields shown may differ between rows.